Laboratory results reported in BindingDB's records for doi:10.1021/jm900695w (Purdue University, 2009).

Molecular target: T1, Dimer of Gag-Pol polyprotein [501-599,Q508K,L534I,L564I,C568A,C596A] (Human immunodeficiency virus 1, UniProt P03367, C568A/C596A/L534I/L564I/Q508K)
T1 construct: 501-599
Experiment: Enzyme Inhibition Assay (Ki) and Antiviral Activity Assay (EC50/IC50)
Settings: pH 6.4; 25 °C

Compound: COc1ccc2c(c1)OCCCCN(C[C@@H](O)[C@H](Cc1ccccc1)NC(=O)O[C@H]1CO[C@H]3OCC[C@H]31)S2(=O)=O [cyclic compound, 15h]
- EC50: 0.077 µM
